Anti-infective test results gathered from many reports (values: NIAID ChemDB through PubChem).

Shared fields: whole-cell or culture tests; species: HIV-1

ECn is the concentration giving n% inhibition of infection, replication or growth. Rows are shuffled and stem from different studies.

{"compound": "Cc1cc(Cl)nc(N2C(=O)CSC2c2c(Cl)cccc2Cl)n1", "strain": "IIIB", "read-out": "EC50", "cell line": "MT-4", "method": "cytopathic effect", "value": "51.8 µM"}
{"compound": "CC[C@H](C)[C@H](NC(=O)C(=O)OC[C@H]1O[C@@H](n2cc(C)c(=O)[nH]c2=O)C[C@@H]1N=[N+]=[N-])C(=O)O", "read-out": "EC50", "cell line": "PBMC", "value": "0.035 µg/mL"}
{"compound": "Cc1cc(Br)cc(S(=O)(=O)c2cccc(N)c2C#N)c1", "read-out": "EC50", "mutations": "RT-K103N", "cell line": "HeLa + HELA CD4+", "method": "β-galactosidase", "value": "1.1 µM"}
{"compound": "O=[N+]([O-])c1cc(CN2CCCNCCNCCCNCC2)cc(CN2CCCNCCNCCCNCC2)c1", "strain": "168.10", "read-out": "EC50", "cell line": "SupT1 + Sup-T1", "method": "cytopathic effect / MTT", "value": "0.02 µg/mL"}
{"compound": "Cc1csc(NC(=S)N[C@H](C)c2cccc3ccccc23)n1", "strain": "RT multidrug-resistant (L74V V106A T215Y)", "read-out": "EC50", "mutations": "RT-L74V V106A T215Y", "cell line": "PBMC", "method": "p24", "value": "0.021 µM"}
{"compound": "CCCN1C(=O)N(CCC)[C@H](Cc2ccccc2)[C@H](O)[C@@H](O)[C@H]1Cc1ccccc1", "strain": "RF", "read-out": "EC50", "cell line": "MT-2", "method": "hybridisation", "value": "<54 µM"}
{"compound": "Cc1cn([C@H]2C=C[C@@H](CO)O2)c(=O)[nH]c1=O", "strain": "TM", "read-out": "EC50", "mutations": "MDR", "cell line": "PBMC", "method": "p24", "value": "0.05 µM"}
{"compound": "COc1ccc2nc3cc(Cl)ccc3c(N[C@H]3CCCN4CCCC[C@H]34)c2c1", "read-out": "EC50", "cell line": "MT-4", "method": "MTT", "value": ">6.4 µM"}
{"compound": "C#CCN1C(=O)N(CC#C)[C@H](Cc2ccccc2)[C@H](O)[C@@H](O)[C@H]1Cc1ccccc1", "strain": "RF", "read-out": "EC50", "cell line": "MT-2", "method": "hybridisation", "value": "<42 µM"}
{"compound": "c1ccc(-c2cc(CN3CCCNCCNCCCNCC3)cc(CN3CCCNCCNCCCNCC3)c2)cc1", "strain": "NL4-3", "read-out": "EC50", "cell line": "MT-4", "method": "cytopathic effect / MTT", "value": "0.2 µg/mL"}
{"compound": "Cc1cc(C)nc(N2C(=O)CSC2c2c(F)cccc2F)n1", "strain": "IIIB", "read-out": "EC50", "cell line": "MT-4", "method": "cytopathic effect", "value": "0.171 µM"}
{"compound": "Nc1ncnc2c1ncn2CCOCP(=O)(O)O", "strain": "IIIB", "read-out": "EC50", "cell line": "PBMC + H-PBMC", "value": "2.5 µM"}
{"compound": "CC(C)(C)NC(=O)[C@@H]1CN(Cc2cccnc2)CCN1C[C@@H](O)C[C@@H](Cc1ccccc1)C(=O)N[C@H]1c2ccccc2C[C@H]1O", "strain": "ESP2-0", "read-out": "EC50", "cell line": "PBMC", "method": "p24", "value": "0.0151 µM"}
{"compound": "COC(=O)c1cc2c(c(OC)c1-c1ccc(N(C)C)cc1)OCO2", "strain": "A17", "read-out": "EC50", "mutations": "K103N + Y181C", "cell line": "C8166", "method": "antigen", "value": "78.2 µM"}
{"compound": "COc1cc(C)nc(N2C(=O)CSC2c2c(Cl)cccc2Cl)n1", "strain": "IIIB", "read-out": "EC50", "cell line": "CEM", "method": "cytopathic effect", "value": "0.041 µM"}
{"compound": "O=c1[nH]cnc2c1ncn2[C@H]1CC[C@@H](CO)O1", "strain": "MOKW", "read-out": "EC50", "cell line": "PBMC", "method": "p24", "value": "0.48 µM"}
{"compound": "Cc1ccnc(N2C(=O)CSC2c2c(Cl)cccc2Cl)n1", "read-out": "EC50", "mutations": "RT-Y181C", "cell line": "CEM", "method": "cytopathic effect", "value": "4.41 µM"}
{"compound": "Cc1cn([C@H]2C[C@H](N=[N+]=[N-])[C@@H](CO)O2)c(=O)[nH]c1=O", "read-out": "EC50", "cell line": "PBMC", "value": "0.02 µg/mL"}
{"compound": "COc1cc(CN2CCCNCCNCCCNCC2)c(OC)cc1CN1CCCNCCNCCCNCC1", "strain": "168.10", "read-out": "EC50", "cell line": "SupT1 + Sup-T1", "method": "cytopathic effect / MTT", "value": "0.01 µg/mL"}
{"compound": "O=C1N(Cc2cccc(CO)c2)[C@H](Cc2ccccc2)[C@H](O)[C@@H](O)[C@@H](Cc2ccccc2)N1Cc1cccc(CO)c1", "strain": "RF", "read-out": "EC50", "cell line": "MT-2", "method": "hybridisation", "value": "<0.038 µM"}
{"compound": "Cc1cn([C@H]2C[C@H](N=[N+]=[N-])[C@@H](CO)O2)c(=O)[nH]c1=O", "strain": "KELL", "read-out": "EC50", "cell line": "CEM + CEM-SS", "method": "cytopathic effect / MTT", "value": "0.007 µM"}
{"compound": "Fc1cccc(F)c1C1SCc2nc3ccccc3n21", "strain": "IIIB", "read-out": "EC50", "cell line": "MT-4", "method": "cytopathic effect", "value": "0.352 µM"}
{"compound": "CCOC(=O)[C@H](C)N[P@](=O)(CO[C@@H]1C=C(F)[C@H](n2cnc3c(N)ncnc32)O1)Oc1ccccc1", "strain": "UG-92-024 (subtype D)", "read-out": "EC50", "conditions": "4 d", "cell line": "PBMCs", "method": "p24 / ELISA / antigen", "value": "0.023 µM"}
{"compound": "Cc1cn([C@H]2C[C@H](N=[N+]=[N-])[C@@H](CO)O2)c(=O)[nH]c1=O", "strain": "NL4-3", "read-out": "EC50", "cell line": "PBMC", "method": "p24", "value": "0.013 µM"}
{"compound": "c1ccc(-c2cc(CN3CCCNCCNCCCNCC3)ccc2CN2CCCNCCNCCCNCC2)cc1", "strain": "NL4-3", "read-out": "EC50", "cell line": "MT-4", "method": "cytopathic effect / MTT", "value": "0.134 µg/mL"}
{"compound": "COc1ccc2nc3cc(Cl)ccc3c(Nc3ccco3)c2c1", "read-out": "EC50", "cell line": "MT-4", "method": "MTT", "value": ">7 µM"}
{"compound": "COC(=O)c1cc(CN2CCCNCCNCCCNCC2)ccc1CN1CCCNCCNCCCNCC1", "strain": "NL4-3", "read-out": "EC50", "mutations": "AMD3100-resistant", "cell line": "MT-4", "method": "cytopathic effect / MTT", "value": ">25 µg/mL"}
{"compound": "Cc1cc(C)nc(N2C(=O)CSC2c2c(Cl)cccc2Cl)n1", "read-out": "EC50", "mutations": "RT-K103N", "cell line": "CEM", "method": "cytopathic effect", "value": "16.9 µM"}
{"compound": "c1ncc(CN2CCCNCCNCCCNCC2)cc1CN1CCCNCCNCCCNCC1", "strain": "168.10", "read-out": "EC50", "cell line": "SupT1 + Sup-T1", "method": "cytopathic effect / MTT", "value": "0.24 µg/mL"}
{"compound": "CN(C)C=Nc1ccn([C@H]2C[C@H](F)[C@@H](CO)O2)c(=O)n1", "strain": "RF", "read-out": "EC50", "cell line": "CEM + CEM-SS", "method": "cytopathic effect / XTT", "value": "1 µg/mL"}
{"compound": "CC(C)(C)NC(=O)[C@@H]1C[C@@H]2CCCC[C@@H]2CN1C[C@@H](O)[C@H](Cc1ccccc1)NC(=O)[C@H](CC(N)=O)NC(=O)c1ccc2ccccc2n1", "strain": "NL4-3", "read-out": "EC50", "cell line": "MT-4", "method": "cytopathic effect / MTT", "value": "0.009 µg/mL"}
{"compound": "Nc1nc2c(ncn2COCCO)c(=O)[nH]1", "strain": "CXCR4-tropic HIV pseudovirus", "read-out": "EC50", "mutations": "WT", "cell line": "PHA-activated CD4+ lymphoblasts", "method": "GFP", "value": "5 µM"}
{"compound": "C[C@@H](NC(=S)Nc1ccc(Br)cn1)c1cccc2ccccc12", "strain": "IIIB", "read-out": "EC50", "cell line": "PBMC", "method": "p24", "value": "0.0015 µM"}
{"compound": "Cc1cn([C@H]2C[C@H](N=[N+]=[N-])[C@@H](CO)O2)c(=O)[nH]c1=O", "read-out": "EC50", "mutations": "RT-Y181C", "cell line": "CEM", "method": "cytopathic effect", "value": "0.019 µM"}
{"compound": "C[C@@H](NC(=S)Nc1ccc(Cl)cn1)c1cccc2ccccc12", "strain": "A17", "read-out": "EC50", "mutations": "RT-Y181C", "cell line": "PBMC", "method": "p24", "value": "0.043 µM"}
{"compound": "Cn1c2ccccc2c2c1cc(C#N)c(=O)n2-c1ccc([N+](=O)[O-])cc1", "strain": "Recombinant", "read-out": "EC50", "mutations": "RT-M41L A62V S68N G112S V118I M184V", "cell line": "HeLa", "method": "luciferase", "value": ">0.0451 µM"}
{"compound": "Nc1ncnc2c1ncn2[C@H]1C=C[C@@H](OCP(=O)(O)O)C1", "strain": "IIIB", "read-out": "EC50", "cell line": "MT-2", "method": "ATP", "value": "52 µM"}
{"compound": "CCCCN1C(=O)C(CC2CCCCC2)NC(=O)C12CCN(Cc1ccc3c(c1)OCCO3)CC2", "strain": "BaL", "read-out": "EC50", "cell line": "PBMC", "method": "p24", "value": "0.04 µM"}
{"compound": "CC(C)(C)NC(=O)[C@@H]1C[C@@H]2CCCC[C@@H]2CN1C[C@@H](O)[C@H](Cc1ccccc1)NC(=O)[C@H](CC(N)=O)NC(=O)c1ccc2ccccc2n1", "strain": "BR97 (PR L10I K20R M36I/V P63L/S L90M)", "read-out": "EC50", "mutations": "PR-L10I K20R M36I/V P63L/S L90M", "cell line": "PBMC", "method": "p24", "value": "0.013 µM"}
{"compound": "Cc1ccnc2c1NC(=O)c1cccnc1N2C1CC1", "read-out": "EC50", "mutations": "RT-Y181C", "cell line": "CEM", "method": "cytopathic effect", "value": "3.04 µM"}
{"compound": "COc1cc(C(F)(F)F)cc(S(=O)(=O)c2cccc(N)c2C#N)c1", "read-out": "EC50", "mutations": "RT-E138K", "cell line": "HeLa + HELA CD4+", "method": "β-galactosidase", "value": "0.029 µM"}
{"compound": "O=c1[nH]cnc2c1ncn2[C@@H]1O[C@H](OCP(=O)(O)O)C=C1F", "strain": "IIIB", "read-out": "EC50", "cell line": "MT-2", "method": "ATP", "value": ">300 µM"}
{"compound": "Cc1cc(O)cc(S(=O)(=O)c2cccc(N)c2C#N)c1", "read-out": "EC50", "mutations": "RT-E138K", "cell line": "HeLa + HELA CD4+", "method": "β-galactosidase", "value": "0.08 µM"}
{"compound": "O=C1N(Cc2ccc3ccccc3c2)[C@H](Cc2ccccc2)[C@H](O)[C@@H](O)[C@@H](Cc2ccccc2)N1CC1CC1", "strain": "RF", "read-out": "EC50", "cell line": "MT-2", "method": "hybridisation", "value": "<1.3 µM"}
{"compound": "Cc1cn([C@H]2C=C[C@@H](CO)O2)c(=O)[nH]c1=O", "strain": "Recombinant", "read-out": "EC50", "mutations": "RT-M41L A62V S68N G112S V118I M184V", "cell line": "HeLa", "method": "luciferase", "value": "0.49 µM"}
{"compound": "COc1ccc2nc3cc(Cl)ccc3c(N3CCCC(O)C3)c2c1", "read-out": "EC50", "cell line": "MT-4", "method": "MTT", "value": ">6.2 µM"}
{"compound": "Cc1cn([C@H]2C[C@H](N=[N+]=[N-])[C@@H](CO)O2)c(=O)[nH]c1=O", "read-out": "EC50", "cell line": "Macrophages", "method": "p24 / ELISA / antigen", "value": "0.005 µM"}
{"compound": "O=C1N(Cc2ccccc2F)[C@H](Cc2ccccc2)[C@H](O)[C@@H](O)[C@@H](Cc2ccccc2)N1Cc1ccccc1F", "strain": "RF", "read-out": "EC50", "cell line": "MT-2", "method": "hybridisation", "value": "<5.5 µM"}
{"compound": "Nc1nc2c(ncn2CCOCP(=O)(O)O)c(=O)[nH]1", "strain": "IIIB", "read-out": "EC50", "cell line": "CEM", "value": "0.8 µM"}
{"compound": "c1cc(CN2CCCNCCCNCCNCCC2)ccc1CN1CCCNCCCNCCNCCC1", "strain": "AOM", "read-out": "EC50", "cell line": "MT-4", "method": "cytopathic effect / MTT", "value": "0.14 µg/mL"}
{"compound": "CC(C)(C)NC(=O)[C@@H]1C[C@@H]2CCCC[C@@H]2CN1C[C@@H](O)[C@H](Cc1ccccc1)NC(=O)[C@H](CC(N)=O)NC(=O)c1ccc2ccccc2n1", "strain": "MOKW", "read-out": "EC50", "cell line": "PBMC", "method": "p24", "value": "0.004 µM"}
{"compound": "O=C1N(Cc2ccc(CO)cc2)[C@H](Cc2ccccc2)[C@H](O)[C@@H](O)[C@@H](Cc2ccccc2)N1Cc1ccc(CO)cc1", "strain": "IIIB", "read-out": "EC90", "cell line": "PBMC", "method": "p24", "value": "0.05 µM"}
{"compound": "COc1ccc2nc3cc(Cl)ccc3c(NCCN3CCOCC3)c2c1", "read-out": "EC50", "cell line": "MT-4", "method": "MTT", "value": ">1.8 µM"}
{"compound": "Cc1ccc(NC(=S)N[C@H](C)c2cccc3ccccc23)nc1", "strain": "A17", "read-out": "EC50", "mutations": "RT-Y181C", "cell line": "PBMC", "method": "p24", "value": "0.066 µM"}
{"compound": "O=c1[nH]cnc2c1ncn2[C@H]1CC[C@@H](CO)O1", "strain": "RF", "read-out": "EC90", "cell line": "PBMC", "method": "p24", "value": "3.9 µM"}
{"compound": "Cc1cc(Cl)cc(S(=O)(=O)c2cccc(N)c2C#N)c1", "read-out": "EC50", "mutations": "RT-V106A Y181C", "cell line": "HeLa + HELA CD4+", "method": "β-galactosidase", "value": "0.077 µM"}

The first 6 rows once more:

{"compound": "Cc1cc(Cl)nc(N2C(=O)CSC2c2c(Cl)cccc2Cl)n1", "strain": "IIIB", "read-out": "EC50", "cell line": "MT-4", "method": "cytopathic effect", "value": "51.8 µM"}
{"compound": "CC[C@H](C)[C@H](NC(=O)C(=O)OC[C@H]1O[C@@H](n2cc(C)c(=O)[nH]c2=O)C[C@@H]1N=[N+]=[N-])C(=O)O", "read-out": "EC50", "cell line": "PBMC", "value": "0.035 µg/mL"}
{"compound": "Cc1cc(Br)cc(S(=O)(=O)c2cccc(N)c2C#N)c1", "read-out": "EC50", "mutations": "RT-K103N", "cell line": "HeLa + HELA CD4+", "method": "β-galactosidase", "value": "1.1 µM"}
{"compound": "O=[N+]([O-])c1cc(CN2CCCNCCNCCCNCC2)cc(CN2CCCNCCNCCCNCC2)c1", "strain": "168.10", "read-out": "EC50", "cell line": "SupT1 + Sup-T1", "method": "cytopathic effect / MTT", "value": "0.02 µg/mL"}
{"compound": "Cc1csc(NC(=S)N[C@H](C)c2cccc3ccccc23)n1", "strain": "RT multidrug-resistant (L74V V106A T215Y)", "read-out": "EC50", "mutations": "RT-L74V V106A T215Y", "cell line": "PBMC", "method": "p24", "value": "0.021 µM"}
{"compound": "CCCN1C(=O)N(CCC)[C@H](Cc2ccccc2)[C@H](O)[C@@H](O)[C@H]1Cc1ccccc1", "strain": "RF", "read-out": "EC50", "cell line": "MT-2", "method": "hybridisation", "value": "<54 µM"}